Measured values from several laboratories, pooled; numbers as filed in NIAID ChemDB.

All rows: growth or infection tests; organism: Aspergillus clavatus; endpoint: MIC

An empty or dashed field is not shown. Neighbouring rows are from separate reports.

compound | strain | read by | value
N#Cc1c(-c2ccccc2)cc(-c2cc3cc(F)ccc3oc2=O)nc1NS(=O)(=O)c1ccccc1 | MTCC 1323 | turbidity | 500 µg/mL
O=C(CSc1nnc(-c2ccc(N=Cc3cccs3)cc2)o1)Nc1ccc([N+](=O)[O-])cc1 | MTCC 1323 | broth dilution | 500 µg/mL
COc1ccc(N2CCN(c3nc(NCCNc4ncnc5c(Br)cc(Br)cc45)nc(NC4CC4)n3)CC2)cc1 | MTCC 1323 | agar | 12.5 µg/mL
N#Cc1ccc(Nc2nc(Oc3cccc4cccnc34)nc(N3CCN(c4ccccn4)CC3)n2)cc1C(F)(F)F | MTCC 1323 | agar | 50 µg/mL
COc1ccc(C=NNC(=O)c2cnc3c(ccc4[nH]c(Cl)cc(C)c43)c2=O)cc1 |  | broth dilution | 500 µg/mL
N#Cc1ccc(Nc2nc(Oc3cccc4cccnc34)nc(N3CCN(c4cccc(Cl)c4Cl)CC3)n2)cc1C(F)(F)F | MTCC 1323 | agar | 6.25 µg/mL
Fc1ccccc1N1CCN(c2nc(NCCNc3ncnc4c(Br)cc(Br)cc34)nc(NC3CC3)n2)CC1 | MTCC 1323 | agar | 100 µg/mL
CCOc1ccc2nc(NC(=O)CSc3nnc(-c4ccc5ncccc5c4)o3)sc2c1 |  | agar | 50 µg/mL
N#CSc1ccc2nc(NC(=O)CN3C(=O)S/C(=C/c4ccccc4)C3=O)sc2c1 | MTCC 1323 | broth dilution / visual reading | >1000 µg/mL
N#Cc1ccc(NC(=O)CSc2nnc(-c3ccc4ncccc4c3)o2)cc1 |  | agar | 100 µg/mL
N#Cc1ccc(Nc2nc(Oc3ncnc4ccccc34)nc(N3CCCCC3)n2)cc1C(F)(F)F | MTCC 1323 |  | >100 µg/mL
O=C(CSc1nnc(-c2ccc(N=Cc3cccs3)cc2)o1)Nc1ccccc1 | MTCC 1323 | broth dilution | 500 µg/mL
COc1ccc2nc(NC(=O)CSc3nnc(-c4ccc5ncccc5c4)o3)sc2c1 |  | agar | 100 µg/mL
N#Cc1c(-c2cccc(F)c2)cc(-c2cc3cc(F)ccc3oc2=O)nc1NS(=O)(=O)c1ccccc1 | MTCC 1323 | turbidity | 500 µg/mL
O=C(CSc1nnc(-c2ccc(N=Cc3cccs3)cc2)o1)Nc1ccccc1Cl | MTCC 1323 | broth dilution | 500 µg/mL
N#Cc1ccc(Nc2nc(Oc3ncnc4ccccc34)nc(N3CCOCC3)n2)cc1C(F)(F)F | MTCC 1323 |  | >100 µg/mL
Cc1ccc(-c2csc(NS(=O)(=O)C3C(=O)ONN3c3ccc(C)cc3)n2)cc1 | MTCC323 | broth dilution | 1000 µg/mL
N#CSc1ccc2nc(NC(=O)CCl)sc2c1 | MTCC 1323 | broth dilution / visual reading | 500 µg/mL
CCN1CCN(c2nc(NN=C3SCC(=O)N3c3ccccc3C)nc3ccccc23)CC1 | MTCC 1323 | agar / visual reading | 12.5 µg/mL
Cc1ccc(NC(=O)CSc2nnc(-c3ccc(N=Cc4cccs4)cc3)o2)c(C)c1 | MTCC 1323 | broth dilution | 250 µg/mL
N#Cc1ccc2nc(NC(=O)CSc3nnc(-c4ccc5ncccc5c4)o3)sc2c1 |  | agar | 50 µg/mL
Cc1nn(-c2ccccc2)c2c1C(c1ccccc1)c1c(nc(=O)[nH]c1N)O2 | MTCC 1323 |  | >1000 µg/mL
N#Cc1ccc(Nc2nc(Oc3cccc4cccnc34)nc(N3CCN(c4ncccn4)CC3)n2)cc1C(F)(F)F | MTCC 1323 | agar | 12.5 µg/mL
COc1ccccc1C1C(Cl)C(=O)N1NC(=O)c1cnc2c(ccc3[nH]c(Cl)cc(C)c32)c1=O |  | broth dilution | >1000 µg/mL
COc1ccc(Nc2nc3c(sc(=S)n3-c3ccccc3)c(=O)n2-c2ccc(OC)cc2)cc1 | MTCC 1323 | broth dilution | 16 µg/mL
O=C(NN1C(=O)/C(=C/c2cc3ccccc3nc2Cl)N=C1c1ccccc1)c1cccc([N+](=O)[O-])c1 | MTCC 1323 | broth dilution | 100 µg/mL
O=C(CSc1nnc(-c2ccc3ncccc3c2)o1)Nc1ccc(I)cc1 |  | agar | 100 µg/mL
COc1ccc(-c2cc(-c3cc4cc(F)ccc4oc3=O)nc(NS(=O)(=O)c3ccccc3)c2C#N)cc1 | MTCC 1323 | turbidity | 500 µg/mL
CCN1CCN(c2nc(NN=C3SCC(=O)N3c3cccc(Cl)c3)nc3ccccc23)CC1 | MTCC 1323 | agar / visual reading | 200 µg/mL
COc1ccc(-c2nc3ccccc3c(=O)n2-c2ccc(NS(=O)(=O)C3C(=O)ONN3c3ccc(C)cc3)cc2)cc1[N+](=O)[O-] | MTCC323 | broth dilution | >1000 µg/mL
CCN1CCN(c2nc(NN=C3SCC(=O)N3c3ccccc3F)nc3ccccc23)CC1 | MTCC 1323 | agar / visual reading | 25 µg/mL
COc1ccc(NC(=O)CSc2nnc(-c3ccc4ncccc4c3)o2)cc1 |  | agar | 100 µg/mL
Brc1cc(Br)c2ncnc(NCCNc3nc(NC4CC4)nc(N4CCN(c5ncccn5)CC4)n3)c2c1 | MTCC 1323 | agar | 12.5 µg/mL
Cc1ccccc1NC(=O)CSc1nnc(-c2ccc(N=Cc3cccs3)cc2)o1 | MTCC 1323 | broth dilution | 500 µg/mL
Clc1nc(NC2CC2)nc(N2CCN(c3ncccn3)CC2)n1 | MTCC 1323 | agar | 25 µg/mL
O=C(CSc1nnc(-c2ccc(N=Cc3cccs3)cc2)o1)Nc1ccc(Cl)cc1 | MTCC 1323 | broth dilution | 500 µg/mL
FC(F)(F)c1cccc(N2CCN(c3nc(NCCNc4ncnc5c(Br)cc(Br)cc45)nc(NC4CC4)n3)CC2)c1 | MTCC 1323 | agar | 50 µg/mL
Cc1ccc(N2NOC(=O)C2S(=O)(=O)Nc2ccc(-n3c(-c4ccccc4Cl)nc4ccccc4c3=O)cc2)cc1 | MTCC323 | broth dilution | 1000 µg/mL
Cc1nn(-c2ccccc2)c2c1C(c1cccc([N+](=O)[O-])c1)c1c(nc(=S)[nH]c1N)O2 | MTCC 1323 |  | 1000 µg/mL
COc1cc(/C=C2/SC(=O)N(CC(=O)Nc3nc4ccc(SC#N)cc4s3)C2=O)cc(OC)c1OC | MTCC 1323 | broth dilution / visual reading | >1000 µg/mL
Cc1ccc(N2NOC(=O)C2S(=O)(=O)Nc2nc3ccc(Br)cc3s2)cc1 | MTCC323 | broth dilution | 200 µg/mL
Cc1nn(-c2ccccc2)c2c1C(c1cccc(Br)c1)c1c(nc(=O)[nH]c1N)O2 | MTCC 1323 |  | 1000 µg/mL
CC1=C(Cl)C(O)=CC(=O)C12Oc1cc(O)c(Cl)c(C)c1C2=O | MTCC 1323 | broth dilution | 100 µg/mL
Clc1cccc(N2CCN(c3nc(Cl)nc(NC4CC4)n3)CC2)c1 | MTCC 1323 | agar | 200 µg/mL
O=C(NN1C(=O)/C(=C/c2cc3ccccc3nc2Cl)N=C1c1ccccc1)c1cc(Cl)ccc1Cl | MTCC 1323 | broth dilution | 500 µg/mL
CS(C)=O | MTCC 1323 |  | >100 µg/mL
CCCCCCN(CCCCCC)c1ccc(/C=C2/SC(=O)N(CC(=O)Nc3nc4ccc(SC#N)cc4s3)C2=O)cc1 | MTCC 1323 | broth dilution / visual reading | 500 µg/mL
CCOC(=O)N1CCN(C(=S)Nc2nc(N3CCN(CC)CC3)c3ccccc3n2)CC1 | MTCC 1323 | agar / visual reading | 200 µg/mL
Brc1cc(Br)c2ncnc(NCCNc3nc(NC4CC4)nc(N4CCN(c5ccccn5)CC4)n3)c2c1 | MTCC 1323 | agar | 100 µg/mL
Cc1cc(Cl)[nH]c2ccc3c(=O)c(C(=O)NN4C(=O)C(Cl)C4c4ccccc4Cl)cnc3c12 |  | broth dilution | 250 µg/mL
O=C(CSc1nnc(-c2ccc3ncccc3c2)o1)Nc1ccc([N+](=O)[O-])cc1 |  | agar | 25 µg/mL
Cc1cc(Cl)[nH]c2ccc3c(=O)c(C(=O)NN=Cc4ccccc4Cl)cnc3c12 |  | broth dilution | >1000 µg/mL
N#CSc1ccc2nc(NC(=O)CN3C(=O)S/C(=C/c4ccc(F)cc4)C3=O)sc2c1 | MTCC 1323 | broth dilution / visual reading | 1000 µg/mL
COc1ccc(C2C(Cl)C(=O)N2NC(=O)c2cnc3c(ccc4[nH]c(Cl)cc(C)c43)c2=O)cc1 |  | broth dilution | >1000 µg/mL
CCN1CCN(c2nc(Nc3ccc(C(=O)/C=C/c4ccccc4)cc3)nc3ccccc23)CC1 | MTCC 1323 | agar / visual reading | 400 µg/mL
CCN1CCN(c2nc(Nc3ccc(C#N)c(C(F)(F)F)c3)nc(Oc3cccc4cccnc34)n2)CC1 | MTCC 1323 | agar | 50 µg/mL
N#CSc1ccc2nc(NC(=O)CN3C(=O)S/C(=C/c4ccccc4Cl)C3=O)sc2c1 | MTCC 1323 | broth dilution / visual reading | 500 µg/mL
Cc1cc(Cl)[nH]c2ccc3c(=O)c(C(=O)NN=Cc4ccccc4O)cnc3c12 |  | broth dilution | 500 µg/mL
CCN1CCN(c2nc(NC(=S)N3CCN(C)C(c4ccccc4)C3)nc3ccccc23)CC1 | MTCC 1323 | agar / visual reading | 3.12 µg/mL
Cc1ccc(C=NNC(=O)c2cnc3c(ccc4[nH]c(Cl)cc(C)c43)c2=O)cc1 |  | broth dilution | 500 µg/mL
CCN1CCN(C(=S)Nc2nc(N3CCN(CC)CC3)c3ccccc3n2)CC1 | MTCC 1323 | agar / visual reading | 200 µg/mL

5 of the rows above, restated:

compound | strain | read by | value
N#Cc1ccc(Nc2nc(Oc3ncnc4ccccc34)nc(N3CCOCC3)n2)cc1C(F)(F)F | MTCC 1323 |  | >100 µg/mL
COc1ccccc1C1C(Cl)C(=O)N1NC(=O)c1cnc2c(ccc3[nH]c(Cl)cc(C)c32)c1=O |  | broth dilution | >1000 µg/mL
CCN1CCN(c2nc(NN=C3SCC(=O)N3c3cccc(Cl)c3)nc3ccccc23)CC1 | MTCC 1323 | agar / visual reading | 200 µg/mL
CS(C)=O | MTCC 1323 |  | >100 µg/mL
COc1ccc(C=NNC(=O)c2cnc3c(ccc4[nH]c(Cl)cc(C)c43)c2=O)cc1 |  | broth dilution | 500 µg/mL